Compound potency records, mixed from different reports. Data source: NIAID ChemDB in PubChem.

Common to all: whole-cell or culture tests; species: HIV-1; read by: cytopathic effect / XTT; read-out: fold resistance

Blank or dashed fields: not listed here.

smiles	changes	strain	cells	result
Cc1cc(C)cc(C(=O)c2c(C(C)C)c(=O)[nH]c(=O)n2CC2=CCCC2)c1	RT-K103N		CEM + CEM-SS	80
CCCCCCCCCCCCCCCC(=O)Nc1ccn([C@H]2CC[C@@H](COP(=O)(O)O[C@H]3C[C@H](n4cc(C)c(=O)[nH]c4=O)O[C@@H]3CO)O2)c(=O)n1	Diphenyl sulfone-resistant (RT-Y181C)	DPS-resistant (RT-Y181C)	CEM + CEM-SS	0.63
CC(C)=CCN1Cc2cc(Cl)cc3[nH]c(=O)n(c23)C[C@@H]1C	RT-Y181C	IIIB	MT-4	496
CC=CCOc1cc(NC(=S)c2ccoc2C)ccc1OC	RT-L74V	NL4-3	CEM + CEM-SS	1
CC(C)=CCOc1cc(NC(=S)c2ccsc2C)ccc1Cl	RT-Y188H	Costatolide-resistant (RT Y188H)	CEM + CEM-SS	8.75
CC(C)=CCN1Cc2cc(Cl)cc3[nH]c(=O)n(c23)C[C@@H]1C	RT-L100I	IIIB	MT-4	>88
CC(C)=CCN1CC(C)Cn2c(=S)[nH]c3cccc1c32	RT-K103N Y181C	A17	CEM(SS) + CEM-SS	>52.4
CSc1nc2c(c(N(C)C)n1)C=Nn1c(nc3ccccc31)S2	RT-L100I	OC(RT-L100I)	CEM + CEM-SS	0.1
CN(C)C1=C(C#N)/C(=C2/C(C#N)=C(N(C)C)N(c3ccc([N+](=O)[O-])cc3)c3c2n(C)c2ccccc32)c2c(c3ccccc3n2C)N1c1ccc([N+](=O)[O-])cc1	RT-T139I	Calanolide-resistant (RT T139I)	CEM + CEM-SS	1.34
CC1=C(C(=O)Nc2ccc(Cl)c(C(=O)OC(C)C)c2)SCCO1	RT-T139I	CALO(RT-T139I)	CEM + CEM-SS	2
Nc1nc2c(ncn2[C@H]2CO[C@@H](CO)O2)c(=O)[nH]1	RT-L74V		MT-2	2.5
Nc1nc(NC2CC2)c2ncn([C@H]3C=C[C@@H](CO)C3)c2n1	RT-K70E	HXB2D (RT K70E recombinant)	MT-2	1.75
CCCc1cc(=O)oc2c3c(c4c(c12)OC(C)(C)CC4)O[C@H](C)[C@@H](C)C3=O	RT-Y181C K103N			<6
CCCCCCCCCCCCCCCC(=O)Nc1ccn([C@H]2CC[C@@H](COP(=O)(O)OC[C@H]3O[C@@H](n4cc(C)c(=O)[nH]c4=O)C[C@@H]3N=[N+]=[N-])O2)c(=O)n1	RT-M41L D67N K70R T215Y	D148/89 (AZT-resistant RT M41L D67N K70R T215Y)	CEM + CEM-SS	0.3
CCOc1c(Cl)cc(F)c(CCNC(=S)Nc2ccc(Br)cn2)c1Cl	RT-Y181C	IIIB	MT-4	12.3
CC(C)=CCOc1cc(NC(=S)c2ccoc2C)ccc1Cl	RT-Y181C	UC781-R (RT-Y181C)	CEM + CEM-SS	111
C=CCO/N=C/c1cc(NC(=S)c2ccoc2C)ccc1Cl	RT-K103N	NL4-3	CEM + CEM-SS	971

Lines come from different laboratories, so protocols vary. Fold resistance has wild type as its base.